Paper PMC6445162, “Effects of NS2B-NS3 protease and furin inhibition on West Nile and Dengue virus replication” (Journal of Enzyme Inhibition and Medicinal Chemistry, 2017)

Sequences of proteins named here, by UniProt entry; tags and fusion partners are left off. Residues count along the entry.
UniProt P06935, 1424-1463 limits assumed: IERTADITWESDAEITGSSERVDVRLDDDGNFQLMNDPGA
UniProt P06935, 1502-1679 limits assumed: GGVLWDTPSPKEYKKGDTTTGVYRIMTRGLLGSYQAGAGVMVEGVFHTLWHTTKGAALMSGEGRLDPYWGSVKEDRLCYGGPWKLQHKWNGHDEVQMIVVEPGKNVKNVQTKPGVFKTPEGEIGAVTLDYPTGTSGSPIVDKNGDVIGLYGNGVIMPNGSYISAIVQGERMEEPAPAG
UniProt P14340, 1398-1437 limits assumed: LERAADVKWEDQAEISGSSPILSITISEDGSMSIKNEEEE
UniProt P14340, 1476-1653 limits assumed: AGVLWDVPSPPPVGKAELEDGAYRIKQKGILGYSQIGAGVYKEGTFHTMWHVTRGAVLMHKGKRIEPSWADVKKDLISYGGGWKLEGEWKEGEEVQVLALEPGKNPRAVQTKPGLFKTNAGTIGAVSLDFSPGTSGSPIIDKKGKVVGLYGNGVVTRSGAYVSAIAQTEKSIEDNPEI

Key:
[1] = molecular target: T1, WNV NS2B-NS3 protease (West Nile virus, UniProt P06935); assay: Enzyme kinetic inhibition of WNV NS2B-NS3 protease construct (Dixon plot); type: biochemical; details: read-out: Ki (μM) (WNV), covalently linked WNV NS2B-NS3 construct, substrate Phac-Leu-Lys-Lys-Arg-AMC, Dixon plots, average of at least two measurements, tested form: TFA
Method: (§1) All measurements were performed at room temperature in black flat-bottom 96-well plates (Nunc, Langenselbold, Germany) using microplate readers (Tecan Safire^2, λex = 380 nm and λem = 460 nm, Tecan Group Ltd., Männedorf, Switzerland or Fluoroskan Ascent type 374, λex = 355 nm and λem = 460 nm; Thermo Fisher Scientific, Vantaa, Finland). The assays with the flavivirus protease constructs were performed with 125 μl buffer (100 mM Tris pH 8.5 containing 20% glycerol, 0.01% Triton X-100, and the inhibitor), 50 μl substrate solution, and were started by addition of 25 μl enzyme solution (total assay volume 200 μl).
For measurements with the covalently linked WNV NS2B-NS3 protease construct (∼4 nM in assay) the substrate Phac-Leu-Lys-Lys-Arg-AMC ×3 TFA (50 µM, 100 µM and 200 µM in assay, KM = 47.5 µM) was used, as described previously.
(§2) The DENV serotype 2 NS2B-NS3 protease construct was prepared from an identical clone as described by D’Arcy et al.[26] The purification of the protease was carried out in a buffer with high ion-strength and low pH value, in the absence of glycerol (20 mM Bis-Tris, 500 mM NaCl, pH 6.3), in order to prevent autolysis of the enzyme. Purification was performed by using a 5 ml HisTrapTM FF column (GE Healthcare) and subsequently, a HiLoad 16/60 SuperdexTM 75 column (GE Healthcare). The assays with the DENV-2 NS2B-NS3^pr° (∼39 nM in well) were performed with the substrate Phac-Lys-Arg-Arg-AMC ×3 TFA (125 µM, 62.5 µM and 31.25 µM in assay, KM = 60 µM). All Ki values were obtained from Dixon plots[27] and are the average of at least two measurements. Due to the weak potency of most compounds against the DENV-2 NS2B-NS3 protease construct, only the percentage of inhibition at a constant inhibitor concentration of 100 µM in the presence of 125 µM substrate was determined.

[2] = molecular target: T1, WNV NS2B-NS3 protease; details: read-out: Ki (WNV NS2B-NS3 protease); reference compounds available from previous studies; tested form: TFA; cited from earlier work
[3] = system: DENV (strain 16681); assay: DENV plaque assay (virus yield from infected Huh-7 cells, titration on VeroE6); type: cell-based, Dengue virus serotype 2; details: tested form: TFA
Method: Inhibition of DENV propagation was determined by plaque assay as described recently[20]^,[28] with slight modifications. Huh-7 cells were seeded into 96-well plates and incubated overnight. The next day, cells were infected with DENV (strain 16681) at a multiplicity of infection (MOI) of 1 PFU/cell. Given concentrations of the compounds, dissolved in culture medium, were added to the cells together with the virus. After 2 h incubation at 37 °C, inocula were removed and cells were covered with fresh medium containing given concentrations of the inhibitors. Production of virus progeny was determined 48 h postinfection by titration of cell supernatants using a plaque assay on VeroE6 cells. Ribavirin was included as a reference compound.

[4] = system: WNV strain New York 99; assay: WNV plaque assay (virus yield from infected Huh-7 cells, titration on VeroE6); type: cell-based, West Nile virus; details: tested form: TFA
Method: An analogous plaque assay was employed for WNV-infected cells. Huh-7 cells were seeded into 96-well plates and incubated overnight. Cells were infected for 1 h with the WNV strain New York 99 at a MOI of 0.2 PFU/cell. Different concentrations of the compounds, dissolved in culture medium, were added to the cells together with the virus. After 1 h incubation at 37 °C, inocula were removed and cells were covered with fresh medium containing the inhibitors. Production of virus progeny was determined 48 h postinfection by titration of culture supernatants using a plaque assay on VeroE6 cells, Ribavirin was included as a reference compound. The influence of inhibitors on cell viability was determined by using CellTiter-Glo® and CytoTox 96® assays (Promega GmbH, Mannheim, Germany) according to the instructions of the manufacturer.

[5] = molecular target: DENV serotype 2 NS2B-NS3 protease (Dengue virus type 2, UniProt P14340); assay: Enzyme kinetic inhibition of DENV-2 NS2B-NS3 protease construct; type: biochemical, Dengue virus serotype 2; details: tested form: TFA; for % Inhib. (DENV): 100 μM inhibitor in the presence of 125 μM substrate
Method: as §1, §2

[6] = 3.1 µM inhibitor, Huh-7 cells, 48 h postinfection
[7] = 50 µM inhibitor, Huh-7 cells, 48 h postinfection
[8] = identical concentrations (e.g. 25 µM)

`N=C(N)N[C@H]1CC[C@H](CNC(=O)[C@H](CCCCN)NC(=O)[C@H](Cc2cccc(CN)c2)NC(=O)Cc2ccccc2)CC1` showed a Ki [1] of 22.2 µM.
For `N=C(N)N[C@H]1CC[C@H](CNC(=O)[C@H](CCCCN)NC(=O)[C@H](CCCCN)NC(=O)Cc2ccccc2)CC1`, the Ki [2] is given as 1.2 µM.
Molecule `CC(=O)NC(C(=O)N[C@@H](CCCCN)C(=O)N[C@@H](CCCCN)C(=O)N[C@@H](CCCNC(=N)N)C(N)=O)c1ccccc1` (some centres unmarked) has a Ki ([1]; listed as 40) of 4 µM.
Work on `N=C(N)N[C@H]1CC[C@H](CNC(=O)[C@H](Cc2ccc(CN)cc2)NC(=O)[C@H](CCCCN)NC(=O)Cc2ccccc2)CC1` yielded a Ki [1] of 28.9 µM.
`N=C(N)NCc1ccc(C[C@H](NC(=O)[C@H](CCCCN)NC(=O)Cc2ccccc2)C(=O)NC[C@H]2CC[C@H](NC(=N)N)CC2)cc1` showed a Ki [1] of 75.6 µM.
In the case of `N=C(N)NCCC[C@H](NC(=O)[C@H](CCCCN)NC(=O)[C@H](CCCCN)NC(=O)C(N)c1ccccc1)C(N)=O` (some centres unmarked), the Ki ([1]; listed as 39) is reported as 4 µM and 3.6 µM.
For `CC(C)(C)[C@H](NC(=O)[C@H](CCCNC(=N)N)NC(=O)Cc1ccc(CNC(=N)N)cc1)C(=O)N[C@@H](CCCNC(=N)N)C(=O)NCc1ccc(C(=N)N)cc1`, the Ki [1] was 6.45 µM, the “decrease of DENV-2 virus titers” value [3, 6] was 10 fold and the “reduction of DENV-2 virus titers” value [3, 7] was “more than 1000 fold”. For the same molecule, the “antiviral effect against DENV-2 compared with ribavirin” value [3, 8] was “significantly stronger antiviral effect”, the “decrease of WNV virus titers” value [4, 6] was 75% and the “reduction of WNV virus titers” value [4, 6] was “less than 10 fold”. For the same molecule, the “reduction of the number of infectious WNV particles” value [4, 7] was “four orders of magnitude”, the “antiviral effect against WNV compared with ribavirin” value [4, 8] was “significantly stronger antiviral effect” and the Ki ([5]; read-out: Ki (μM) (DENV), DENV-2 NS2B-NS3 construct, substrate Phac-Lys-Arg-Arg-AMC, Dixon plots) was 83.1 µM.
For `N=C(N)N[C@H]1CC[C@H](CNC(=O)[C@H](Cc2cccc(CN)c2)NC(=O)[C@H](CCCCN)NC(=O)Cc2ccccc2)CC1`, the Ki [1] was 134 µM.
With `N=C(N)Nc1ccc(C[C@H](NC(=O)[C@H](CCCCN)NC(=O)Cc2ccccc2)C(=O)NC[C@H]2CC[C@H](NC(=N)N)CC2)cc1` the Ki [1] was 18.2 µM and the “% Inhib. (DENV)” value [5] was 14.7%.
With `N=C(N)N[C@H]1CC[C@H](CNC(=O)[C@H](Cc2cccc(CN)c2)NC(=O)[C@H](Cc2cccc(CN)c2)NC(=O)Cc2ccccc2)CC1` the Ki [1] was 44.2 µM and the “% Inhib. (DENV)” value [5] was 5.5%.
With `N=C(N)NCc1ccc(C[C@H](NC(=O)Cc2ccccc2)C(=O)N[C@@H](Cc2ccc(CNC(=N)N)cc2)C(=O)NC[C@H]2CC[C@H](NC(=N)N)CC2)cc1` the Ki [1] was 85.3 µM and the “% Inhib. (DENV)” value [5] was 17.1%.
With `N=C(N)NCc1cccc(C[C@H](NC(=O)Cc2ccccc2)C(=O)N[C@@H](Cc2cccc(CNC(=N)N)c2)C(=O)NC[C@H]2CC[C@H](NC(=N)N)CC2)c1` the Ki [1] was 21.6 µM.
In the case of `N=C(N)NCc1cccc(C[C@H](NC(=O)Cc2ccccc2)C(=O)N[C@@H](CCCCN)C(=O)NC[C@H]2CC[C@H](NC(=N)N)CC2)c1`, the Ki [1] is reported as 29.6 µM and the “% Inhib. (DENV)” value [5] is reported as 31.1%.
Work on `N=C(N)NCc1cccc(C[C@H](NC(=O)[C@H](CCCCN)NC(=O)Cc2ccccc2)C(=O)NC[C@H]2CC[C@H](NC(=N)N)CC2)c1` yielded a Ki [1] of 99.4 µM.
In the case of `N=C(N)N[C@H]1CC[C@H](CNC(=O)[C@H](Cc2ccc(CN)cc2)NC(=O)[C@H](Cc2ccc(CN)cc2)NC(=O)Cc2ccccc2)CC1`, the Ki [1] is reported as 13.6 µM and the “% Inhib. (DENV)” value [5] is reported as 10.8%.
`N=C(N)Nc1ccc(C[C@H](NC(=O)Cc2ccccc2)C(=O)N[C@@H](CCCCN)C(=O)NC[C@H]2CC[C@H](NC(=N)N)CC2)cc1` gave a Ki [1] of 29.8 µM.

Several values for one entry are separate records, joined by “and”; a condition that tells them apart may be missing. Identical values can stand only once. Like-named read-outs stand apart in the source and are kept apart here.
